# The other results are listed elsewhere or left out. The calls are words filed in the database; no cut-off is given here.
# Biological target: T1, Thioredoxin peroxidase (Schistosoma mansoni) (UniProt O97161)
# T1 sequence (whole entry): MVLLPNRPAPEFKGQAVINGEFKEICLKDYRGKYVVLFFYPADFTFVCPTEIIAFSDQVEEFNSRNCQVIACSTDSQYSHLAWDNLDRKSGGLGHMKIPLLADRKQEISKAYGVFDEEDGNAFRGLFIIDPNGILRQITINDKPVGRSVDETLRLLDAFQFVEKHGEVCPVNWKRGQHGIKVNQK
# Test: Confirmation Concentration-Response Assay for Inhibitors of the Schistosoma mansoni Redox Cascade. [Related pubchem assays: 448 ]
# Format: functional
compound,measurement,value
CCc1nc2c([nH]1)c1no[n+]([O-])c1c1no[n+]([O-])c21,Potency,active: 13.1 µM

# Reference: ChEMBL document CHEMBL1201862, “PubChem BioAssay data set” (2004)
